According to patent US20130202593A1 (MEDICAL RESEARCH COUNCIL, published 2013):

Target: polyclonal antibody against adenovirus used in the neutralisation titration of FIG. 1B
Assay: cell-based or functional assay

B1: endogenous TRIM21 in human cells (HeLa) (receptor)
chain: MASAARLTMMWEEVTCPICLDPFVEPVSIECGHSFCQECISQVGKGGGSVCPVCRQRFLLKNLRPNRQLANMVNNLKEISQEAREGTQGERCAVHGERLHLFCEKDGKALCWVCAQSRKHRDHAMVPLEEAAQEYQEKLQVALGELRRKQELAEKLEVEIAIKRADWKKTVETQKSRIHAEFVQQKNFLVEEEQRQLQELEKDEREQLRILGEKEAKLAQQSQALQELISELDRRCHSSALELLQEVIIVLERSESWNLKDLDITSPELRSVCHVPGLKKMLRTCAVHITLDPDTANPWLILSEDRRQVRLGDTQQSIPGNEERFDSYPMVLGAQHFHSGKHYWEVDVTGKEAWDLGVCRDSVRRKGHFLLSSKSGFWTIWLWNKQKYEAGTYPQTPLHLQVPPCQVGIFLDYEAGMVSFYNITDHGSLIYSFSECAFTGPLRPFFSPGFNDGGKNTAPLTLCPLNIGSQGSTDY
- adenovirus infection (percentage of GFP positive cells), fold decrease due to antibody: > 50 fold
- adenovirus infection, fold decrease due to antibody in cells depleted of TRIM21: ~3 fold
- adenovirus infection, fold decrease due to antibody in cells pre-incubated with IFNα: > 230 fold
